# Measured values from ChEMBL document CHEMBL4303101, “Identification of inhibitors of SARS-CoV-2 in-vitro cellular toxicity in human (Caco-2) cells using a large scale drug repurposing collection” (2020).
# System: SARS-CoV-2
# Conditions: Homo sapiens; Caco-2; 10 uM
sequence,measurement,value
COLISTIN SULFATE,inhibition,13.7% and 5.96%

# Where “and” joins values, the source holds several entries; their conditions need not be identical. Identical values can stand only once.
